# Results reported in PubChem BioAssay AID463187 (University of Pittsburgh Molecular Library Screening Center, 2010).
# The chains behind the UniProt entries cited, without tags or fusion partners.
# UniProt P08631, whole entry, looked up: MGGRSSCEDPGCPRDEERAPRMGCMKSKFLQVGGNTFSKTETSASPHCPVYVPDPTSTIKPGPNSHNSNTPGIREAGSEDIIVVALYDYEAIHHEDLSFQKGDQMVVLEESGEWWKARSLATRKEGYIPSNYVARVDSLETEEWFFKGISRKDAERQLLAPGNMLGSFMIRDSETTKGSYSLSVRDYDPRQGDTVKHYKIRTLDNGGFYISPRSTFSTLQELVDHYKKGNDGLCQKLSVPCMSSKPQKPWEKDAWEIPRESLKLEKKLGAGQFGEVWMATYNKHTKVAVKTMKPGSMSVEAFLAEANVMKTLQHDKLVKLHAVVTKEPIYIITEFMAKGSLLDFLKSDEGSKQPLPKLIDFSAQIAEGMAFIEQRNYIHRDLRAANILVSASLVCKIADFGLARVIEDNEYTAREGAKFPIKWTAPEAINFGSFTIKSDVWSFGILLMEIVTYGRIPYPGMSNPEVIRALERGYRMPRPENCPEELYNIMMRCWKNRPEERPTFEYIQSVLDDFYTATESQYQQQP
# The list shows a part of the results, in another mix than the full data. Activity calls are given as the source filed them.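 The calls were made as follows: active = Hck-Nef kinase inhibition above about 50% (limit read from the data); inactive = inhibition below that limit.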
# Target: Tyrosine-protein kinase HCK (Homo sapiens) (UniProt P08631)
# Test: Hck:Nef complex kinase activity blockers – biochemical, Z-Lyte FRET, 384-well, Hck-YEEI, primary screen (AID 463187);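 also: 0% = DMSO with Hck plus Nef and 100% = Hck alone without Nef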
# Settings: Recombinant Hck-YEEI plus Nef, Z-Lyte FRET kinase assay; at 20 µM; stronger effect = higher value
row,Structure (SMILES),inhibition
1,COc1ccc(C(=O)NCC2(N3CCOCC3)CCCCC2)cc1OC,inactive: 19.5%
2,N/C(=N\O)c1c(N)no[n+]1[O-],inactive: -0.0637%
3,O=C(OC1CN2CCC1CC2)C1c2ccccc2C=Cc2ccccc21 (centres undefined),inactive: 2.07%
4,N#Cc1ccc(C(=O)NCC2(N3CCCCC3)CCCCC2)cc1,inactive: 18.2%
5,c1ccc(CN2CCC(Nc3ccccc3)CC2)cc1,inactive: -10.6%
6,CCN1CCC(Nc2cccc(F)c2)CC1,inactive: -6.61%
7,CN(C)c1ccc(C(=O)NCC2(N3CCCCC3)CCCCC2)cc1,inactive: 21.5%
8,CCOc1ncccc1C(=O)NCC1(N2CCOCC2)CCCCC1,inactive: 0.577%
9,CC(C)(C)OC(=O)N1CCC(Nc2ccccc2)CC1,inactive: 13.6%
10,COc1cc(OC)cc(C(=O)NCC2(N3CCOCC3)CCCCC2)c1,inactive: -8.89%
11,CCC(CO)(C(=O)OC1CN2CCC1CC2)c1ccccc1 (centres undefined),inactive: 0.42%
12,CCCOc1ccc(C)cc1CN(CCCl)CCCl,inactive: 2.9%
13,COc1ccc(C(=O)NCC2(N3CCCCC3)CCCCC2)c(OC)c1OC,inactive: -11.5%
14,O=C(NCC1(N2CCOCC2)CCCCC1)c1cc2ccccc2o1,inactive: -19.3%
15,N#CC1(Nc2ccccc2)CCN(Cc2ccccc2)CC1,inactive: 10.1%
16,O=C(OC1CN2CCC1CC2)C1c2ccccc2Oc2ccccc21 (centres undefined),inactive: -0.337%
17,CCOC(=O)N1CCC(Nc2ccc(OC)cc2)CC1,inactive: 27%
18,CCOc1ccc(C)cc1CN(CCCl)CCCl,inactive: 5.5%
19,COc1ccc(NC2CCN(CCc3ccccc3)CC2)c(OC)c1,inactive: 0.106%
20,Cc1ccc(OCC(C)C)c(CN(CCCl)CCCl)c1,inactive: -10.3%
21,N#CC1(Nc2ccccc2)CCN(CCc2ccccc2)CC1,inactive: 1.2%
22,O=C(NCC1(N2CCCCC2)CCCCC1)c1cccc([N+](=O)[O-])c1,inactive: 9.6%
23,O=C(NCC1(N2CCOCC2)CCCCC1)c1cc(=O)[nH]c2ccccc12,inactive: -10.2%
24,COc1ccc(NC2CCN(C(=O)OC(C)(C)C)CC2)cc1,inactive: 31.5%
25,CN1CCN(CCOC(=O)C(O)(c2ccccc2)c2ccccc2)CC1,inactive: 0.967%
26,CC(C)c1ccc(NC2CCN(C(=O)OC(C)(C)C)CC2)cc1,inactive: 20.4%
27,COc1ccc(CN(CCCl)CCCl)cc1Cl,inactive: 13.1%
28,CN(C)c1cccc(C(=O)NCC2(N3CCCCC3)CCCCC2)c1,inactive: 17.7%
29,CN1CCC(Nc2cccc(F)c2)CC1,inactive: -0.288%
